A mixed list of measured activities; the numbers were collected in NIAID ChemDB.

Common to all: growth or infection tests; species: Herpes simplex virus 1

ECn: concentration that inhibits the pathogen or its effect by n%. Blank or dashed fields: not listed here. Neighbouring rows are from separate reports. Two numbers with a dash give a range or band.

SMILES	strain or isolate	measure	method	cell line	result
CCc1nc(-n2c(-c3ccccc3)nc3ccc(Br)cc3c2=O)nc(N)c1-c1ccc(Cl)cc1	KOS ACV (TK-)	EC50	cytopathic effect	E6SM	>16 µg/mL
O=c1[nH]cnc2c1ncn2C[C@H]1C[C@H]1[C@H](O)CO		EC50		VERO	>50 µM
O=C(Nc1cc(F)ccc1N1CCCCC1)c1ccncc1	F	EC50	plaque count	VERO	2.14 µM
COCc1cn([C@H]2C[C@H](O)[C@@H](CO)O2)c(=O)nc1N	NAH	EC50	plaque count	VERO	66 µM
C[C@]1(CO)[C@H](Cn2cnc3c(=O)[nH]c(N)nc32)C1(F)F	HF	EC50		VERO	>100 µM
Nc1nc2c(ncn2COC(CO)CO)c(=O)[nH]1		EC50	plaque count	VERO	0.25 µM
Cc1cccn2c(C3OCCS3)cnc12	KOS	EC50		E6SM	>1000 µM
Nc1nc(NC2CC2)c2ncn(C=C3CC3CO)c2n1		EC50	cytopathic effect	HFF	73.4 µM
CCCCCCCCCCCCOC(=S)S		EC50	plaque count		8.3 µM
O=C(Nc1cc(F)ccc1N1CCCCCC1)c1ccncc1	F	EC50	plaque count	VERO	2.82 µM
CCCC(=O)OCC(CO)OCn1cnc2c(=O)[nH]c(N)nc21		EC50	plaque count	HFF	0.5 µg/mL
O=c1c2ncn(COC(CO)CO)c2nc2[nH]c(-c3ccccc3)cn12	F	EC50	cytopathic effect	E6SM	0.005 µg/mL
[N-]=[N+]=N[C@H]1C[C@H](CO)S[C@H]1n1cnc2c(=O)[nH]cnc21		EC50			>100 µg/mL
CC(=O)N[C@H]1C(OCCCCC(=O)NCCCC[C@H](NC(=O)CCCCOC2O[C@H](CO)[C@H](O)[C@H](O)[C@H]2NC(C)=O)C(=O)N[C@@H](CCCCNC(=O)CCCCOC2O[C@H](CO)[C@H](O)[C@H](O)[C@H]2NC(C)=O)C(=O)NCCNP(=O)(O)COCCn2cnc3c(N)ncnc32)O[C@H](CO)[C@H](O)[C@@H]1O		EC50	cytopathic effect	HepG2	0.047 µM
C[C@H]1[C@H](O)[C@@H](CO)O[C@H]1n1cc(I)c(=O)[nH]c1=O	KOS	EC50	cytopathic effect	RPMI8226	0.12 µg/mL
Cc1cccc(C)c1N(CC(=O)Nc1ccc(-c2ncon2)cc1)C(C)C1CCS(=O)(=O)CC1	KOS	EC50	plaque count	Vero Cells + HEF cells	0.01 µM
C[C@]1(CO)[C@@H](Cn2cnc3c(=O)[nH]c(N)nc32)C1(F)F	HF	EC50		VERO	>100 µM
Nc1nc2c(ncn2CC(CO)CCO)c(=O)[nH]1	C1 (101)	EC50	plaque count	VERO	1.7 µM
O=C(NCc1ccc(Cl)cc1)c1c[nH]c2ccc(CCCO)cc2c1=O	KOS	EC50	plaque count		7.4 µM
Nc1nc2c(ncn2CC[C@@H](O)CO)c(=O)[nH]1	SC16	EC50	plaque count	VERO	5 µM
Nc1ncnc2c1ncn2[C@@H]1O[C@H](CO)[C@@H](O)[C@@H]1O	ACG-resistant	EC50	plaque count	RK-13	19 µM
[N-]=[N+]=N[C@@H]1C[C@@H](CO)S[C@H]1n1ccc(=O)[nH]c1=O		EC50			>100 µg/mL
O=C(O)Cc1ccc(-c2ccccn2)cc1	F	EC50		VERO	0.1 µM
Cc1cc2nc3c4ccccc4n(CCN(C)C)c3nc2cc1C	C42	EC50	ELISA	RK-13	4.17 µM
CC(=O)NC1C(O)OC(CO)C(O)C1OC1OC(C(=O)[O-])C(OC2OC(CO)C(O)C(OC3OC(C(=O)[O-])C(O)C(O)C3O)C2NC(C)=O)C(O)C1O.[Na+].[Na+]	F	EC50			>400 µg/mL
Nc1nc(N)c2ncn(C=C3CC3CO)c2n1		EC50	cytopathic effect	HFF	413 µM
COCCOCSC(=S)OC1CCCCC1		EC50	plaque count		23.4 µM
Nc1nc2c(ncn2COCCOC(CO)CO)c(=O)[nH]1	F	EC50	plaque count	VERO	7 µM
S=C(S)OC1CC2CC1C1CCCC21		EC50	plaque count		19.3 µM
COC(=O)[C@H](C)NP(=O)(OC[C@H]1C/C1=C/n1cnc2c(N)nc(N)nc21)Oc1ccccc1		EC50	plaque count	HFF	5.5 µM
Cc1ccn2c(C3SCCS3)cnc2c1	VMW 1837 (TK+/TK-)	EC50		E6SM	>1000 µM
O=c1[nH]c(=O)n([C@H]2C[C@H](O)[C@@H](CO)O2)cc1/C=C/Br	S3	EC50	cytopathic effect	BHK-21	0.005 µg/mL
Cc1cn(N2C[C@H](CO)[C@H]2CO)c(=O)[nH]c1=O		EC50	plaque count	VERO	>10 µg/mL
Nc1nc2c(ncn2/C=C2/CC2(CO)CO)c(=O)[nH]1		EC50	ELISA	BSC-1	50 µM
O=C(O)P(=O)(O)O	K1R	EC50	plaque count	GMK	109 µM
Cc1cn([C@@H]2S[C@H](CO)C[C@H]2N=[N+]=[N-])c(=O)[nH]c1=O		EC50			>100 µg/mL
Cc1cn([C@@H]2O[C@H](CO)[C@@H](O)[C@@H]2O)c(=O)[nH]c1=O		MIC			1 µg/mL
COc1cc(Cc2cnc(-n3c(C)nc4ccc(Br)cc4c3=O)nc2N)cc(OC)c1OC	KOS ACV (TK-)	EC50	cytopathic effect	E6SM	>80 µg/mL
O=c1[nH]c(=O)n(C2CC(O)C(CO)O2)cc1-c1cc(Br)no1	KOS	EC50			7 µM
Nc1ncnc2c1ncn2/C=C1/CC1(CO)CO		EC50	cytopathic effect	HFF	>380 µM
C=C1[C@H](CO)[C@H]1Cn1cnc2c(=O)[nH]cnc21		EC50			>100 µM
Cc1cn([C@H]2S[C@@H](CO)C[C@@H]2N=[N+]=[N-])c(=O)[nH]c1=O		EC50			>100 µg/mL
O=c1[nH]c(=O)n([C@H]2C[C@H](O)[C@@H](CO)O2)cc1I	ICI	EC50	plaque count	VERO	1 µM
Cc1c(O)c(=O)ccn1[C@@H]1CS[C@@H](CO)O1	TK-	EC50	cytopathic effect	HEL	85 µM
C=C1[C@H](CO)[C@H]1Cn1cnc2c(Cl)nc(N)nc21		EC50			>100 µM
Cc1nnc2nc3c(nn12)c1ccccc1n3C		EC50	plaque count	BSC-1	<60 µg/mL
CCc1cn([C@H]2C[C@H](O)[C@@H](CO)O2)c(=O)[nH]c1=O	KOSSB (TK-)	EC50	plaque count		>780 µM
C[C@@]1(O)[C@@H](CO)O[C@@H](n2cnc3c(N)ncnc32)[C@@H]1O	KOS	EC50	cytopathic effect	E6SM	10 µg/mL
O=c1[nH]c(=O)n([C@H]2C[C@H](O)[C@@H](CO)O2)cc1C(F)(F)F	ICI	EC50	plaque count	VERO	0.1 µM
Cc1ccc(S(=O)C[C@H](CF)OCn2cc(F)c(=O)[nH]c2=O)cc1		EC50	plaque count	VERO	>200 µg/mL
COC(=O)[C@H](C)NP(=O)(OCC1C/C1=C/n1cnc2c(NC3CC3)nc(N)nc21)Oc1ccccc1		EC50	plaque count	HFF	0.8 µM
O=C(O)CP(=O)(O)O	ICI	EC50	plaque count	VERO	57.5 µM
Nc1ccn(C[C@H]2C[C@H]2CO)c(=O)n1		EC50		VERO	>50 µM
COc1cc(OC)c(NC(=S)Nc2ccc(NC(C)=O)cc2)cc1Cl	Patton	EC50		HFF	>20 µM
Cc1nc2ccc(Br)cc2c(=O)n1-c1nnc(-c2cccc(Cl)c2Cl)c(N)n1	KOS	EC50	cytopathic effect	E6SM	>3.2 µg/mL
O=c1[nH]c(=O)n([C@@H]2O[C@H](CO)[C@@H](O)[C@@H]2O)cc1/C=C/Br		MIC			0.032 µg/mL
CSC(=S)OC1CCCCC1		EC50	plaque count		47.2 µM
O=c1ccn(C2CC(O[N+](=O)[O-])C(CO)O2)c(=O)[nH]1	KOS ACV-R (TK-)	EC50	cytopathic effect	E6SM	>400 µg/mL
[N-]=[N+]=N[C@H]1C[C@H](CO)S[C@H]1n1ccc(=O)[nH]c1=O		EC50			>100 µg/mL
C[C@H]1[C@H](O)[C@@H](CO)O[C@H]1n1cc(F)c(N)nc1=O	KOS	EC50	cytopathic effect	RPMI8226	>66.9 µg/mL
Cc1ccn2c(C3OCCS3)cnc2c1	KOS	EC50		E6SM	>1000 µM
Nc1ncnc2c1ncn2[C@@H]1O[C@H](CO)[C@@H](O)[C@@H]1O		EC50	cytopathic effect	VERO	10 µg/mL
Nc1ncnc2c1ncn2[C@@H]1O[C@H](CO)[C@@H](O)[C@@H]1O	ICI	EC50	plaque count	VERO	16 µM
Cc1ccc(S(=O)C[C@H](CF)OCn2cnc3c(=O)[nH]c(N)nc32)cc1		EC50	plaque count	VERO	>50 µg/mL
CC(=O)O[C@@H]1C[C@H](O)C23COC(O)[C@]1(C)C2C[C@@H](O)C1(C)C3C(=O)[C@H](OC(C)=O)[C@@]2(C)[C@H](c3ccoc3)CC3OC312		EC50	ELISA	VERO	1.46 µg/mL
Cc1cc2nc3c4ccccc4n(Cc4ncc[nH]4)c3nc2cc1C	C42	EC50	ELISA	RK-13	12.3 µM
Nc1nc2c(ncn2C[C@H]2C[C@H]2[C@H](O)CO)c(=O)[nH]1		EC50		VERO	>50 µM
COC(=O)[C@H](C)NP(=O)(OC[C@H]1C/C1=C/n1cnc2c(=O)[nH]c(N)nc21)Oc1ccccc1		EC50	cytopathic effect	HFF	20.2 µM
C=C1[C@H](CO)[C@H]1Cn1cnc2c(=O)[nH]c(N)nc21		EC50			>100 µM
Nc1ncnc2c1ncn2[C@@H]1C[C@H](CO)[C@@H](O)[C@@H]1O	HF	EC50	cytopathic effect	HEP-2	2.8–9 µg/mL
CC(=O)OCC(COC(C)=O)OCn1cnc2c(=O)[nH]c(N)nc21		EC50	plaque count	HFF	2.8 µg/mL
Fc1ccc(N2CCCCCC2)c(NC(=S)c2ccncc2)c1	F	EC50	plaque count	VERO	2.21 µM
Nc1ncnc2c1ncn2[C@@H]1O[C@H](CO)[C@](O)(C(F)(F)F)[C@H]1O	KOS	EC50	cytopathic effect	E6SM	20 µg/mL
C[C@H]1[C@H](O)[C@@H](CO)O[C@H]1n1cc(I)c(N)nc1=O	Hangai	EC50	cytopathic effect	RPMI8226	0.32 µg/mL
O=c1[nH]c(=O)n([C@@H]2O[C@H](CO)[C@@H](O)[C@@H]2O)cc1/C=C/Cl		MIC			0.1 µg/mL
O=c1[nH]c(=O)n(C2CC(O)C(CO)O2)cc1-c1ccco1	KOS	EC50			0.45 µM

Again, the opening 10 rows:

SMILES	strain or isolate	measure	method	cell line	result
CCc1nc(-n2c(-c3ccccc3)nc3ccc(Br)cc3c2=O)nc(N)c1-c1ccc(Cl)cc1	KOS ACV (TK-)	EC50	cytopathic effect	E6SM	>16 µg/mL
O=c1[nH]cnc2c1ncn2C[C@H]1C[C@H]1[C@H](O)CO		EC50		VERO	>50 µM
O=C(Nc1cc(F)ccc1N1CCCCC1)c1ccncc1	F	EC50	plaque count	VERO	2.14 µM
COCc1cn([C@H]2C[C@H](O)[C@@H](CO)O2)c(=O)nc1N	NAH	EC50	plaque count	VERO	66 µM
C[C@]1(CO)[C@H](Cn2cnc3c(=O)[nH]c(N)nc32)C1(F)F	HF	EC50		VERO	>100 µM
Nc1nc2c(ncn2COC(CO)CO)c(=O)[nH]1		EC50	plaque count	VERO	0.25 µM
Cc1cccn2c(C3OCCS3)cnc12	KOS	EC50		E6SM	>1000 µM
Nc1nc(NC2CC2)c2ncn(C=C3CC3CO)c2n1		EC50	cytopathic effect	HFF	73.4 µM
CCCCCCCCCCCCOC(=S)S		EC50	plaque count		8.3 µM
O=C(Nc1cc(F)ccc1N1CCCCCC1)c1ccncc1	F	EC50	plaque count	VERO	2.82 µM